Results deposited as PubChem BioAssay AID624099 (ICCB-Longwood, 2012)
Test: 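Knock-downs relieving repression by E2 of an HPV18 LCR luciferase reporter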 (primary screen). Cells: human C33A cervical carcinoma cells (HPV-negative) stably expressing BPV1 E2 and an HPV18 LCR luciferase reporter. Reagent: siRNA pool against human genes, 40 nM. Timing: 72 h. Detection: 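Per-well luciferase luminescence, z-scored on each plate against the plate mean and SD with control wells left out, then averaged across three replicate plates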. Reading the numbers: mean z-score and z-score: higher = stronger reporter signal, weaker E2 silencing. Hit rule: 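Hit if mean z-score reaches 2 and two or more of three replicate z-scores also reach 2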.
This is a random part of about 21,000 reagents. Of all reagents, 497 (2.4%) are marked active. 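Higher z means weaker E2 silencing; only reporter increases were scored, and knock-downs that hurt cell survival may mask genuine repressor factors.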 A number with no mark means an inactive call.

Target gene	mean z-score	z-score, replicate A	z-score, replicate B	z-score, replicate C
COG6	-1.33	-1.42	-1.2	-1.37
BTG3	0.2	0.05	0.41	0.15
PDIA3	-0.22	-0.16	-0.47	-0.02
LOC387937 (retired record)	0.68	0.58	0.68	0.77
CDYL	-0.33	-0.17	-0.36	-0.46
PIGX	1.9	2.3	1.76	1.64
KATNAL2	0.4	0.15	0.56	0.49
TEX55	-2.28	-2.2	-2.47	-2.17
FBXO6	-0.23	-0.32	0.08	-0.45
MKLN1	0.05	0.08	-0.04	0.13
PHOX2B	0.26	0.19	0.21	0.39
PUS7L	-1.24	-1.46	-1.2	-1.06
CHRNB3	0.23	0.16	0.19	0.35
CYBA	0.23	-0.17	0.67	0.18
ADGRF3	-1.04	-0.94	-1	-1.19

The list goes on (5 carried over from the part before).
Target gene	mean z-score	z-score, replicate A	z-score, replicate B	z-score, replicate C
PHOX2B	0.26	0.19	0.21	0.39
PUS7L	-1.24	-1.46	-1.2	-1.06
CHRNB3	0.23	0.16	0.19	0.35
CYBA	0.23	-0.17	0.67	0.18
ADGRF3	-1.04	-0.94	-1	-1.19
PRR23C	2.35 (active)	2.17	2.7	2.17
SFXN3	-1.62	-1.99	-1.63	-1.22
NHERF1	-1.31	-1.33	-1.59	-1.02
SPTB	-0.11	-0.36	-0.19	0.21
SCAP	-0.37	-0.48	-0.25	-0.38
FOXJ1	0.12	0.28	-0.15	0.24
TCHP	0.59	0.49	0.8	0.48
RND3	-1.12	-1.45	-0.87	-1.04
PYGL	0.95	0.8	0.87	1.17
PRY	-1.43	-1.2	-1.39	-1.7
DEGS1	0.92	1.46	0.45	0.86
SPEF2	0.56	0.07	0.71	0.89
RPL5P34	-2.44	-2.41	-3.03	-1.89
LOC401352 (retired record)	-0.27	-0.29	-0.32	-0.19
FAS	1	0.91	0.99	1.1
MEIS2	1.97	1.92	2.27	1.73
ARHGAP36	-0.08	-0.24	0.1	-0.1
LOC401121 (retired record)	0.65	0.91	0.65	0.4
PPP6R2	0.94	1.01	0.97	0.83
LOC389703 (retired record)	-0.48	-0.46	-0.33	-0.64
MAP1LC3B	1.08	1.41	0.88	0.96
PPIAP55	-0.34	-0.39	-0.23	-0.4
FHAD1	-1.2	-1.31	-1.15	-1.13
PRB3	-0.41	-0.44	-0.33	-0.46
